Assay results: the supplement of paper PMC12637763
Positions count from the first letter of the chain named. The list shows a part of the results. Env chains of viruses from a treatment-interruption trial, translated from the printed DNA. IC50 / IC80 of two broadly neutralizing antibodies; lower = more sensitive virus; >50 µg/ml means not reached and <0.001 µg/ml is below the lowest dose. No active / inactive call.

B1: HIV-1 Env, rebound clone, antibody arm (protein)
chain: MKVKGTKRNYQHLWRWGIMLLGILMICSAADKFWVTVYYGVPVWKEASTTLFCASDAKAYDTEVHNVWATHACVPTDPNPQEIFLENVTEDFNMWENNMVEQMHEDVISLWDQSLKPCVKLTPLCVTLNCTDLKNVTESGNATATGGNNNRTVENEGEIKNCSFNITTSIRDKVTKEYALFNALDVVPIEDSNDNSSNGGNYSSYRMIHCNTSTITQACPKVSFEPIPIHYCTPAGFAILKCNNNTFSGKGPCNNVSTVQCTHGIRPVVSTQLLLNGSLAEEEIVIRSKNFSQNTDIIIVQLNESVIINCTRPNNNTRRGVHIGPGRAFYATGDIIGDIRRAYCNISRAEWNKTLGRVAEKLREQFPNKTIVFNQSSGGDPEIATHSFNCGGEFFYCYTSKLFNSTWNDTEGKVEEGDGNITFPCRIKQIINLWQEVGKAMYAPPISGIIKCESNITGLLLTRDGGNDNNTNEIFRPWGGNMKDNWRSELYKYKVVKIEPIGVAPTKAKRRVVQREKRAVGALGAMFLGFLGAAGSTMGAASLTLTVQARLLLSGIVQQQNNLLRAIEAQQHMLQLTDWGIKQLQARVLAVERYLRDQQLLGIWGCSGKLICTTAVPWNDSWSNNKTYDDIWENMTWMAWEKEIDNYTGIIYNLLEISQNQQEKNEQELLELDKWASLWNWVDITHWLWYIKIFIMIVGGLIGLRIVFTVLSIINRVRQGYSPLSFQTHLLTSRGPDRPEGIEEEGGEQDRGRSIRLVDGFLALFWDDLRSLCLFSYHRLRDLLLIAARIVELLGRRGWGILKYWWSLLQYWSQELNKSAISLLNATAIAVAEGTDRIIEVVQRAGRAILHIPVRIRQGLERALQ
B2: HIV-1 Env, rebound clone, antibody arm (protein)
chain: MRVKGIRRNYQHWWRGDIWRWGMMLLGMLMICSATGSLWVTVYYGVPVWKEATTTLFCASDAKAYDTEAHNVWATHACVPTDPNPQEVPLVNVTENFNMWKNNMVEQMHEDIISLWDQSLKPCVKLTPLCVTLHCTEIGTNATNNSSHNPNPTTNSSTSPTPMGEIKNCSFNVTTNRRDKVQKTYAFFYNMDIKQIAEEDNTSYILTSCNTSVITQACPKVSFEPIPIHYCAPAGFAILKCNDTNFNGTGPCKNVTTVQCTHGIKPVVSTQLLLNGSLARGEVMIRSENISNNAKIIIVQLKEPVEINCTRPNNNTRKSITIGPGRAFFGTDIIGGIRQAHCNISREKWNYTLYQISEKLRSHFVNKTIVFNQSSGGDPEIVMHSFNCGGEFFYCDTSKLFNSTWHTNSTANNTGDNSTITLPCRIKQIVNMWQEVGKAMYAPPIKGPIRCSSKITGVLLTRDGGTNNTNTTETFRPAGGDMRDNWRSELYKYKVVQIEPLGIAPTQAKRRVVQRDKRAVGIGALFLGFLGTAGSTMGAASITLTVQARNLLSGIVQQQNNLLRAIEAQQHLLQLTVWGIKQLQARVLAVESYLKDQQLLGIWGCSGKLICTTAVPWNNSWSNKSLDYIWNNMTWMEWEREIDNYTEYIYDLLEASQNQQEKNEQELLALDKWASLWSWFSITQWLWYIKLFLIIVGGLIGLRIVFAVFSIVNRVRQGYSPLSLQTLLPAQRGPDRPEGIEEEGGEQDRGRSIRLVDGFLALFWDDLRSLCLFSYHRLRDLLLIVTRIVELLGRRGWETLKYCWNLLQYWGQELKKSAVSLFNFSAIAVAEGTDRVIEVVQRIWRAIIHIPRRIRQGLEGALL
B3: HIV-1 Env, rebound clone, antibody arm (protein)
chain: B2 chain with V79A

Columns and labels:
[1] = target: antibody 10-1074; experiment: neutralization IC50; higher = virus less sensitive to the antibody
Protocol: (§1)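 Pseudovirus bearing the Env chain mixed with antibody, from 50 µg/ml in fivefold dilutions, on TZM-bl reporter cells, in duplicate.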

[2] = target: antibody 3BNC117; experiment: as above
Protocol: as §1

[3] = target: antibody 10-1074; experiment: neutralization IC80; higher = virus less sensitive to the antibody
Protocol: as §1

[4] = target: antibody 3BNC117; experiment: as above
Protocol: as §1

Binder | neutralization IC50 [1] | neutralization IC50 [2] | neutralization IC80 [3] | neutralization IC80 [4]
B1 | 0.226 µg/mL | > 50 µg/mL | 1.21 µg/mL | > 50 µg/mL
B2 | 3.1 µg/mL | 0.053 µg/mL | > 50 µg/mL | 0.149 µg/mL
B3 | 7.08 µg/mL | 0.053 µg/mL | > 50 µg/mL | 0.197 µg/mL
